The assay deals with Human immunodeficiency virus type 1 protease (Human immunodeficiency virus 1, UniProt Q72874). In words: Inhibitory activity was determined against HIV type 1 protease.

Broadly, the Ki is a measure of affinity in units of concentration, obtained from inhibition or displacement. Compound `NC(=O)C[C@H](NC(=O)COc1ccccc1)C(=O)N[C@@H](Cc1ccccc1)[C@@H](O)[C@@H](NCc1ccccc1)C(=O)NCc1ccccc1` gave a Ki of 851 nM. In other words, the sub-micromolar range.

For the origin of these results see ChEMBL document CHEMBL1128211, “3D-quantitative structure-activity relationships of human immunodeficiency virus type-1 proteinase inhibitors: comparative molecular field analysis of 2-heterosubstituted statine derivatives-implications for the design of novel inhibitors” (J Med Chem, 1995).
